PubChem BioAssay AID624099 – ICCB-Longwood, 2012
Here is an unselected part of about 21,000 reagents tested. Of all reagents, 497 (2.4%) got an active call. 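Higher z means weaker E2 silencing; only reporter increases were scored, and knock-downs that hurt cell survival may mask genuine repressor factors.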 Reagents against one gene are numbered here. No sequences are given here.

Assay: 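Human genes that papillomavirus E2 requires to repress the HPV18 LCR promoter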 (primary screen)
Cells: human C33A cervical carcinoma cells (HPV-negative) stably expressing BPV1 E2 and an HPV18 LCR luciferase reporter
Reagent: siRNA pool against human genes, 40 nM
Duration: 72 h
Measurement: 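HPV18 LCR reporter light per well, converted to plate-wise z-scores that exclude control wells, and averaged over triplicate plates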
Scale: mean z-score and z-score: higher = stronger reporter signal, weaker E2 silencing
Active means: 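Mean z ≥ 2 together with z ≥ 2 in two or more of the three replicates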

{"Target gene": "SFXN5", "pool no.": 1, "mean z-score": 0.13, "z-score, replicate A": 0.45, "z-score, replicate B": 0.2, "z-score, replicate C": -0.27, "Outcome": "inactive"}
{"Target gene": "DDX20", "pool no.": 1, "mean z-score": -0.14, "z-score, replicate A": 0.04, "z-score, replicate B": -0.29, "z-score, replicate C": -0.18, "Outcome": "inactive"}
{"Target gene": "EXOC4", "pool no.": 1, "mean z-score": 0.6, "z-score, replicate A": 0.13, "z-score, replicate B": 0.55, "z-score, replicate C": 1.12, "Outcome": "inactive"}
{"Target gene": "CLASP1", "pool no.": 1, "mean z-score": -0.64, "z-score, replicate A": -0.96, "z-score, replicate B": -0.31, "z-score, replicate C": -0.65, "Outcome": "inactive"}
{"Target gene": "ARL4AP1", "pool no.": 1, "mean z-score": 1.12, "z-score, replicate A": 1.14, "z-score, replicate B": 1.06, "z-score, replicate C": 1.15, "Outcome": "inactive"}
{"Target gene": "GPAA1", "pool no.": 1, "mean z-score": -0.78, "z-score, replicate A": -0.94, "z-score, replicate B": -0.73, "z-score, replicate C": -0.66, "Outcome": "inactive"}
{"Target gene": "TJAP1P1", "pool no.": 1, "mean z-score": 0.67, "z-score, replicate A": 0.48, "z-score, replicate B": 0.93, "z-score, replicate C": 0.58, "Outcome": "inactive"}
{"Target gene": "DLL4", "pool no.": 1, "mean z-score": 0.95, "z-score, replicate A": 1.25, "z-score, replicate B": 0.7, "z-score, replicate C": 0.89, "Outcome": "inactive"}
{"Target gene": "GHITM", "pool no.": 1, "mean z-score": 1.51, "z-score, replicate A": 1.15, "z-score, replicate B": 1.77, "z-score, replicate C": 1.62, "Outcome": "inactive"}
{"Target gene": "LOC388229 (retired record)", "pool no.": 1, "mean z-score": -0.75, "z-score, replicate A": -1.13, "z-score, replicate B": -0.63, "z-score, replicate C": -0.49, "Outcome": "inactive"}
{"Target gene": "POT1-AS1", "pool no.": 1, "mean z-score": 0.26, "z-score, replicate A": 0.56, "z-score, replicate B": 0.11, "z-score, replicate C": 0.11, "Outcome": "inactive"}
{"Target gene": "POT1-AS1", "pool no.": 2, "mean z-score": 0.24, "z-score, replicate A": 0.23, "z-score, replicate B": 0.11, "z-score, replicate C": 0.4, "Outcome": "inactive"}
{"Target gene": "HSFX1", "pool no.": 1, "mean z-score": -0.24, "z-score, replicate A": 0.12, "z-score, replicate B": -0.37, "z-score, replicate C": -0.48, "Outcome": "inactive"}

An excerpt of the results above, as a working copy:
{"Target gene": "LOC388229 (retired record)", "pool no.": 1, "mean z-score": -0.75, "z-score, replicate A": -1.13, "z-score, replicate B": -0.63, "z-score, replicate C": -0.49, "Outcome": "inactive"}
{"Target gene": "POT1-AS1", "pool no.": 1, "mean z-score": 0.26, "z-score, replicate A": 0.56, "z-score, replicate B": 0.11, "z-score, replicate C": 0.11, "Outcome": "inactive"}

The listing continues.
{"Target gene": "SLC35B2", "pool no.": 1, "mean z-score": 1.33, "z-score, replicate A": 1.18, "z-score, replicate B": 1.32, "z-score, replicate C": 1.49, "Outcome": "inactive"}
{"Target gene": "RAB32", "pool no.": 1, "mean z-score": -0.29, "z-score, replicate A": -0.43, "z-score, replicate B": -0.42, "z-score, replicate C": -0.01, "Outcome": "inactive"}
{"Target gene": "HYAL3", "pool no.": 1, "mean z-score": 1.95, "z-score, replicate A": 1.77, "z-score, replicate B": 2.07, "z-score, replicate C": 2.02, "Outcome": "inactive"}
{"Target gene": "LRRC10B", "pool no.": 1, "mean z-score": -2.03, "z-score, replicate A": -2.22, "z-score, replicate B": -1.59, "z-score, replicate C": -2.28, "Outcome": "inactive"}
{"Target gene": "IER2", "pool no.": 1, "mean z-score": -1.3, "z-score, replicate A": -1.48, "z-score, replicate B": -1.15, "z-score, replicate C": -1.28, "Outcome": "inactive"}
{"Target gene": "USP26", "pool no.": 1, "mean z-score": 1.04, "z-score, replicate A": 0.82, "z-score, replicate B": 0.95, "z-score, replicate C": 1.34, "Outcome": "inactive"}
{"Target gene": "WBP2", "pool no.": 1, "mean z-score": 1.14, "z-score, replicate A": 1.01, "z-score, replicate B": 1.18, "z-score, replicate C": 1.23, "Outcome": "inactive"}
{"Target gene": "SWSAP1", "pool no.": 1, "mean z-score": 0.53, "z-score, replicate A": 0.77, "z-score, replicate B": 0.48, "z-score, replicate C": 0.33, "Outcome": "inactive"}
